System: honeybees
Assay: Field Assay: consumption of pollen supplement patties by honeybees
Type: in vivo, Apis mellifera
[1] = field tests of the formulated product

SMILES: CNC(=O)c1cc(Cl)cc(C)c1NC(=O)c1cc(Br)nn1-c1ncccc1Cl [chlorantraniliprole]
- consumption of treated protein by bees versus control/untreated (approximately 10 μg/g patty, 5 days in colonies): same or higher rates than control/untreated
- avoidance of treated feed patties by honey bees versus untreated control patties [1]: no avoidance
- preference of honey bees for patties [1]: some evidence of a preference for treated patties
